A mixed list of measured activities; the numbers were collected in NIAID ChemDB.

All rows: host cell toxicity; measure: CC50

Conditions beyond the fields shown may differ between rows. CCn is the concentration with n% toxicity to the cells. An empty or dashed field is not shown.

structure | setting | read by | cells | value
O=c1[nH]c(=O)n([C@@H]2O[C@H](CO)[C@@H](O)[C@@H]2O)cc1/C=C/Br |  | MTT | CBMC | 98 µM
Nc1nc(=O)n([C@@H]2CC[C@H](CO)O2)cc1F |  |  | IM9 | >100 µM
Nc1nc(Cl)nc2c1ncn2[C@@H]1O[C@H](CO)[C@@H](O)[C@H]1O |  | MTT | Sheep chondrocytes G81092 | <50 µM
CCCCCCCCCCCCCCCCOP(=O)([O-])OCCC[n+]1ccccc1 |  | MTT | MDA | 59.9 µM
CCOC(=O)c1ccc2c(c1)nc(-c1ccc(O)cc1)n2CCN1CCCOC1 |  | MTT | Vero cell | >62.5 µg/mL
O=C(O)CP(=O)(O)O |  | MTT | CBMC | 332 µM
COc1cc(-c2ccccc2)c(OC)c(OC)c1O |  | sulforhodamine / absorbance | P-388 | 39.04 µM
Nc1nc(N)c2ncn(CCOCP(=O)(O)O)c2n1 |  | MTT | CBMC | 30 µM
Nc1nc(OCCOCP(=O)(O)O)cc(OCCOCP(=O)(O)O)n1 |  |  | HeLa S3 | <10 µM
NC[C@@H]1O[C@H](O[C@H]2[C@@H](O)[C@H](O[C@@H]3[C@@H](O)[C@H](N)C[C@H](N)[C@H]3O[C@H]3O[C@H](CO)[C@@H](O)C[C@H]3N)O[C@@H]2CO)[C@H](N)[C@@H](O)[C@@H]1O[C@H]1O[C@H](CO)[C@@H](O)[C@H](O)[C@@H]1O |  |  | HeLa | 200 µg/mL
OC[C@@H]1CC[C@H](n2cnc3c(NC4CCCCCC4)nc(Cl)nc32)O1 |  | MTT | Sheep chondrocytes G81092 | 125 µM
CCOC(=O)c1ccc2nc(-c3ccc(Cl)cc3)[nH]c2c1 |  | MTT | Vero cell | >62.5 µg/mL
O=C(O)P(=O)(O)O |  |  | CD4+ T lymphocytes | 132 µg/mL
Nc1cc(OCCOCP(=O)(O)O)nc(N)n1 |  |  | HEPAD79 | >379 µM
COc1cc(O)cc2oc3cc(O)c(O)cc3c(=O)c12 |  | sulforhodamine / absorbance | ASK (Atlantic salmon kidney) | >50 µM
CC(C)(C)CC(C)(C)c1ccc(OCCOP(=O)([O-])OCCC[N+](C)(C)Cc2ccccc2)cc1 |  | MTT | HUVEC | >100 µM
O=C1C[C@@H](c2ccc(O)cc2)Oc2cc(O)c(-c3c(O)cc4c(c3O)C(=O)C[C@@H](c3ccc(O)cc3)O4)c(O)c21 |  | visual reading | MDCK | 12 µg/mL
Nc1nc(N)c(C=O)c(OCCOCP(=O)(O)O)n1 |  |  | HepAD38 | >342 µM
Nc1nc(=O)n([C@@H]2CS[C@H](CO)O2)cc1F |  |  | CFU-GM | 300 µM
OC[C@@H]1C[C@@H](O)[C@H](n2cnc3c(NC4CCCCC4)nc(Cl)cc32)O1 |  | MTT | Sheep chondrocytes G81092 | 270 µM
Nc1ncc2c(ncn2COC(CO)CO)n1 |  | MTT | CBMC | 26 µM
CC[C@@H]1[C@@H](C)O[C@@](O)([C@@H](C)[C@H](O)[C@H](C)[C@H]2OC(=O)/C=C/C=C/[C@H](C)[C@@H]([C@@H](C)[C@@H](O)[C@H](C)[C@@]3(O)C[C@@H](O[C@H]4C[C@H](O)[C@H](O)[C@H](C)O4)[C@H](CC)[C@@H](C)O3)OC(=O)/C=C/C=C/[C@@H]2C)C[C@H]1O[C@H]1C[C@H](O)[C@H](O)[C@H](C)O1 |  |  | HeLa | <10 µg/mL
CC(C)C(=O)NC1NC(c2ccccc2)(c2cccc(Cl)c2)c2ccccc2NC1=O |  |  | HEP-2 | 6 µM
COC(=O)[C@H]1C2CON=C2c2cc3c(cc2[C@H]1c1cc(OC)c(OC)c(OC)c1)OCO3 |  |  | MEL-28 | 5.7 µM
CCCCC1CN(S(=O)(=O)C2CC2)CCC12CCN(C1(C)CCN(C(=O)c3c(C)ncnc3C)CC1)CC2 |  |  | CEM-R5 | 0.022 µM
NCC[C@H](O)C(=O)N[C@@H]1C[C@H](N)[C@@H](O[C@H]2O[C@H](CN)[C@@H](O)[C@H](O)[C@H]2O)[C@H](O)[C@H]1O[C@H]1O[C@H](CO)[C@@H](O)[C@H](N)[C@H]1O |  | MTT | Vero cell | >62.5 µg/mL
O=c1cc(-c2ccc(Oc3c(O)cc4oc(-c5ccc(O)cc5)cc(=O)c4c3O)cc2)oc2cc(O)cc(O)c12 |  | neutral red | MA-104 | 6 µg/mL
OC[C@H]1O[C@@H](n2cnc3c(NC4CCCC4)nc(Cl)cc32)[C@H](O)[C@@H]1O |  | MTT | Sheep chondrocytes G81092 | 205 µM
CCOC(=O)c1ccc2c(c1)nc(-c1ccccc1)n2CCN1CCCC1=O |  | MTT | Vero cell | >62.5 µg/mL
O=c1cc(-c2ccc(O)c(-c3c(O)cc4oc(-c5ccc(O)cc5)cc(=O)c4c3O)c2)oc2cc(O)cc(O)c12 |  | visual reading | MA-104 | 56 µg/mL
Nc1nc2c(ncn2CCC(CO)CO)c(=O)[nH]1 |  |  | CD4+ T lymphocytes | >250 µg/mL
CCCCCCCCCCCCCCCCOP(=O)([O-])OCC[N+](C)(C)Cc1ccccc1 |  | MTT | MCF | 76 µM
N#CCc1c(N)nc(N)nc1OCCOCP(=O)(O)O |  |  | HEPAD79 | >330 µM
O=C(NC1N=C(c2cccc(Cl)c2)c2ccccc2NC1=O)c1ccc([N+](=O)[O-])cc1 |  |  | HEP-2 | 7 µM
OC[C@@H]1C[C@@H](O)[C@H](n2cnc3c(NC4CCCCC4)nccc32)O1 |  | MTT | Sheep chondrocytes G81092 | >400 µM
CCOC(=O)c1ccc2c(c1)nc(-c1ccc(O)c(OC)c1)n2CCN1CCCC1=O |  | MTT | Vero cell | >62.5 µg/mL
CC[C@]12CCCN3CCc4c(n(c5ccccc45)[C@@](O)(C(=O)OC)C1)[C@@H]32 |  |  | HeLa | >200 µg/mL
OC[C@H]1O[C@@H](n2cnc3c(NC4CC4)ncnc32)[C@H](O)[C@@H]1O |  |  | MDBK | >400 µM
Nc1nc(NC2CC2)cc(OCCOCP(=O)(O)O)n1 |  |  | HeLa S3 | <10 µM
CCCCC1CN(C(=O)C2CCOCC2)CCC12CCN(C1(C)CCN(C(=O)c3c(C)cc(C#N)nc3C)CC1)CC2 |  |  | CEM-R5 | 0.217 µM
C[C@H]1[C@H](O)C(=O)CC2[C@]3(C)CC[C@@]4(C)C5CC(C)(C)CC[C@]5(C)CC[C@]4(C)C3CC[C@@]21C |  | sulforhodamine / absorbance | HT-29 | >50 µM
COc1c2c(c(C(=O)c3ccccc3)c3c1C=CC(C)(C)O3)OC(C)(C)C=C2 |  | XTT / absorbance | 1A2 | 239 µM
COc1cccc(C2(c3ccccc3)NC(NC(=O)N3CCCCC3)C(=O)Nc3ccccc32)c1 |  |  | HEP-2 | 5 µM
NCC(O)c1ccc(O)c(O)c1 |  |  | HeLa | 75 µg/mL
O=C(O)P(=O)(O)O |  | MTT | CBMC | 890 µM
COc1cc([C@@H]2c3cc4c(cc3[C@H](OC(C)=O)[C@@H]3COC(=O)[C@@H]23)OCO4)cc2nc3ccccc3nc12 |  |  | MEL-28 | 1 µM
CCCCCCCCCCCCCCCC[N+](C)(C)Cc1ccccc1 |  | MTT | MDA | 3.5 µM
CO[C@H]1/C=C/O[C@@]2(C)Oc3c(C)c(O)c4c(O)c(c(/C=N/N5CCN(C)CC5)c(O)c4c3C2=O)NC(=O)/C(C)=C\C=C\[C@H](C)[C@H](O)[C@@H](C)[C@@H](O)[C@@H](C)[C@H](OC(C)=O)[C@@H]1C |  | MTT | Vero cell | >62.5 µg/mL
Nc1ncnc2c1ncn2C[C@@H](CO)OCP(=O)(O)O |  | MTT | HSB-2 | 42 µM
COc1cc([C@@H]2c3cc4c(cc3[C@H](OC(C)=O)[C@@H]3COC(=O)[C@H]23)OCO4)cc2c1OCO2 |  |  | HT-29 | 2.27 µM
COc1cc(O)cc(OC)c1C(=O)c1cc(O)cc(O)c1 |  | XTT / absorbance | 1A2 | >430 µM
Nc1cc(Cl)nc2c1ncn2[C@@H]1O[C@H](CO)C[C@H]1O |  |  | Sheep chondrocytes G81092 | >400 µM
COC(=O)[C@@H]1[C@H](c2cc(OC)c3nc4ccccc4nc3c2)c2cc3c(cc2C2=NOC[C@@H]21)OCO3 |  |  | P-388 | 10 µM
CCCCC1CN(S(=O)(=O)C2CCOCC2)CCC12CCN(C1(C)CCN(C(=O)c3c(C)ncnc3C)CC1)CC2 |  |  | CEM-R5 | 0.022 µM
CCOC(=O)c1ccc2nc(-c3ccc(C(F)(F)F)cc3)[nH]c2c1 |  | MTT | Vero cell | >62.5 µg/mL
C[C@]12CCC(=O)C=C1CC[C@@H]1[C@@H]2C(=O)C[C@@]2(C)[C@H]1CC[C@]2(O)C(=O)CO |  |  | HeLa | >10 µg/mL
O=c1[nH]cnc2c1ncn2[C@H]1CC[C@@H](CO)O1 |  |  | HELA-CD4+ | 2.7 µM
CC1Oc2cc(O)c3c(=O)c4ccc(O)c(O)c4oc3c2C1(C)C |  | sulforhodamine / absorbance | ASK (Atlantic salmon kidney) | 27.57 µM
OC[C@H]1O[C@@H](n2cnc3c(NC4CCCCCC4)nc(Cl)nc32)CC1O |  |  | Sheep chondrocytes G81092 | 98 µM
NC[C@H]1O[C@H](O[C@H]2[C@H](O[C@@H]3O[C@H](CO)[C@@H](O)[C@H]3O)[C@@H](O)[C@H](N)C[C@@H]2N)[C@H](N)[C@@H](O)[C@@H]1O |  |  | HeLa | >100 µg/mL
CC1C(=O)N(O)c2ncc(Br)cc2C1O | 3 d | MTS | HepG2-NTCP-12 | >100 µM
Cc1cc([N+](=O)[O-])ccc1C(=O)N(C)C1N=C(c2ccccc2)c2ccccc2NC1=O |  |  | HEP-2 | 15.9 µM
COC(=O)[C@@H]1[C@H](c2cc(OC)c3nc4cc(C)c(C)cc4nc3c2)c2cc3c(cc2C2=NOC[C@@H]21)OCO3 |  |  | MEL-28 | 1 µM
O=C(c1cc(O)cc(O)c1)c1c(O)cc(O)cc1O |  | XTT / absorbance | 1A2 | 110 µM
O=C(O)C1=CC(=C(c2ccc(O)c(C(=O)O)c2)c2ccc(O)c(C(=O)O)c2)C=CC1=O |  |  | CD4+ T lymphocytes | 100 µg/mL
C=CC(C)(C)c1c2c(c(O)c3c(=O)c4ccc(OC)c(O)c4oc13)C=CC(C)(C)O2 |  | XTT / absorbance | 1A2 | >306 µM
CC1=C(/C=C/C(C)=C/C=C/C(C)=C/C=C/C=C(C)/C=C/C=C(C)/C=C/C2=C(C)CCCC2(C)C)C(C)(C)CCC1 |  |  | HeLa | >200 µg/mL
Nc1nc(OCCOCP(=O)(O)O)cc(=O)[nH]1 |  |  | CCRF-CEM | <10 µM
O=c1c2cc(O)c(O)cc2oc2cc(O)cc(O)c12 |  | XTT / absorbance | 1A2 | >480.4 µM
Nc1nc2c(ncn2COC(CO)CO)c(=O)[nH]1 |  |  | CD4+ T lymphocytes | 61 µg/mL
Nc1nc(OCCOCP(=O)(O)O)cc(=O)[nH]1 |  |  | HepAD38 | >329 µM
CSc1nc(N)cc(OCCOCP(=O)(O)O)n1 |  |  | CCRF-CEM | <10 µM
Nc1nc(Cl)nc2c1ncn2[C@H]1C[C@H](O)[C@@H](CO)O1 |  |  | Sheep chondrocytes G81092 | <50 µM
O=c1c2cc(O)ccc2oc2cc(O)cc(O)c12 |  | sulforhodamine / absorbance | KB | >50 µM
Cc1cc(=O)n(CCOCP(=O)(O)O)c(N)n1 |  |  | HeLa S3 | <10 µM
Nc1cc(OCCOCP(=O)(O)O)nc(=O)[nH]1 |  |  | HEPAD79 | >356 µM
Nc1ccn(C[C@H]2COP(=O)(O)CO2)c(=O)n1 |  | MTT | CBMC | 152 µM
O=C(NC1NC(c2ccccc2)(c2cccc(Cl)c2)c2ccccc2NC1=O)c1cccs1 |  |  | HEP-2 | 5 µM
CCOC(=O)c1ccc2c(c1)nc(-c1ccc(O)cc1)n2CCN1CCCC1=O |  | MTT | Vero cell | >62.5 µg/mL

Again, the opening 5 rows:

structure | setting | read by | cells | value
O=c1[nH]c(=O)n([C@@H]2O[C@H](CO)[C@@H](O)[C@@H]2O)cc1/C=C/Br |  | MTT | CBMC | 98 µM
Nc1nc(=O)n([C@@H]2CC[C@H](CO)O2)cc1F |  |  | IM9 | >100 µM
Nc1nc(Cl)nc2c1ncn2[C@@H]1O[C@H](CO)[C@@H](O)[C@H]1O |  | MTT | Sheep chondrocytes G81092 | <50 µM
CCCCCCCCCCCCCCCCOP(=O)([O-])OCCC[n+]1ccccc1 |  | MTT | MDA | 59.9 µM
CCOC(=O)c1ccc2c(c1)nc(-c1ccc(O)cc1)n2CCN1CCCOC1 |  | MTT | Vero cell | >62.5 µg/mL